Where “and” joins values, the source holds several entries; their conditions need not be identical. Identical values can stand only once.
What was measured:
T. cruzi amastigotes = assay: Antiamastigote assay (T. cruzi), ex vivo intracellular model using mice macrophages, microscopy; assay type: cell-based, Trypanosoma (T.) cruzi; conditions: selectivity index CC50 (NCTC cells)/IC50 amastigotes
Protocol: T. cruzi also assumes several cell morphologies during its lifecycle, which differ between the insect vector and mammalian host. In the latter environment, the parasite transitions between extracellular bloodstream trypomastigotes and intracellular amastigotes; both forms are clinically relevant, particularly during the acute stage of Chagas disease.[34] In this work, antitrypanosomal activity was tested against both the amastigote form (evaluated microscopically using an ex vivo intracellular model using mice macrophages) and the trypomastigote form (using the resazurin in vitro assay).[33],[35] […] In silico predictions of pharmacokinetic profiles were carried out using the SwissADME webtool (see the Supporting Information for details).[36] […]
[…] Cultivation was performed in 2% fetal calf serum supplemented RPMI-1640 medium.
The trypomastigotes were maintained in a humidified incubator at 37 °C and with 5% CO2. […]
(§1) Peritoneal macrophages were obtained via washing the peritoneal cavity of BALB/c mice with 10% foetal calf serum supplemented RPMI-1640 medium (pH 7.2). The macrophages were maintained in a humidified incubator at 37 °C and with 5% CO2.
(§2) Biological activity assays […]
Peritoneal macrophages (1 × 10^5 cells/well) obtained from the peritoneal cavity of BALB/C mice were added to 16-well chambers (NUNC, Thermo Fischer Scientific). The cells were infected with trypomastigotes (10:1 parasites/macrophage) for 2 h. Then treatment of the infected macrophages with selected compounds (serially diluted 1.2 to 100 μM) was performed in a humidified incubator for 48 h at 37 °C and with 5% CO2. The treated cells were fixed on slides using methanol, stained with Giemsa and observed under a light microscope (EVOS M5000, Thermo, USA) with digital image equipment. The infection index was used in order to determine the half inhibitory concentration (IC50) (no. infected macrophages × no. amastigotes / total no.

L. infantum amastigotes = assay: Antiamastigote assay (L. infantum), ex vivo intracellular model of mice macrophages, microscopy; assay type: cell-based, Leishmania (L.) infantum; conditions: selectivity index CC50 (NCTC cells)/IC50 amastigotes
Protocol: Table 1 depicts the antileishmanial (L. infantum) activity evaluation performed against both the amastigote form (evaluated microscopically using an ex vivo intracellular model of mice macrophages) and the promastigote one (using an MTT colorimetric method).[32],[33] The cytotoxicity was evaluated against NCTC cells using an MTT colorimetric method and the selectivity index was determined using the ratio between the CC50 values (NCTC cells) and the IC50 values (amastigotes).[32] […] With respect to the substituents on the C ring, larger, hydrophobic groups conferred greater bioactivity (e.g., 9b–d), whereas small, hydrophilic groups such as a hydroxyl group afford modest to poor bioactivity.
Leishmania (L.) infantum (MHOM/BR/1972/LD) amastigotes were obtained from golden hamsters (Mesocricetus auratus) spleens following 60-70 days of infection via differential centrifugation. The Stauber method was used to determine the number of parasites.12 […]
as §1, §2
Antiamastigote Assay (L. infantum)
Peritoneal macrophages (1 × 10^5/well) were added to a 16-well slide chambers (NUNC) and incubated with 5% CO2 at 37 °C. The cells were subsequently infected with L. infantum amastigotes (10:1 amastigotes/macrophage) for 24 h. Treatment of the cells with selected compounds (serially diluted 1.2 to 150 μM) was performed in a humidified incubator for 96 h at 37 °C and with 5% CO2. Untreated cells were used as a negative control and miltefosine was used as a standard drug. The treated cells were fixed on slides with methanol, stained with Giemsa and observed under a light microscope.13 The infection index was used in order to determine the half inhibitory concentration (IC50) (no. infected macrophages × no. amastigotes / total no. […]

Compound | T. cruzi SI (T. cruzi amastigotes) | L. infantum SI (L. infantum amastigotes)
COc1cc2c(cc1OC)[C@@H](Cc1ccc(Br)cc1)N(C)CC2 [(R)-9a] | 2.7 | 3.7
COc1cc2c(cc1OC)[C@@H](Cc1ccc(OC)c(OCc3ccccc3)c1)N(C)CC2 [(R)-9b] | > 10 and 13 | 4.7
COc1cc2c(cc1OC)[C@@H](Cc1ccc(OCc3ccccc3)cc1)N(C)CC2 [(R)-9d] | 4.5 | 3.0
COc1ccc(COc2ccc(C[C@@H]3c4cc(OC)c(OC)cc4CCN3C)cc2)cc1 [(R)-10c] | – | 3.0
COc1cc2c(cc1OC)[C@@H](Cc1ccc(Oc3cc(C[C@@H]4c5cc(OC)c(OC)cc5CCN4C)ccc3OC)cc1)N(C)CC2 [(R,R)-11, (−)-O-methyldauricine] | 7.8 | –
COc1cc2c(cc1OC)[C@@H](Cc1ccc(Oc3cc(C[C@H]4c5cc(OC)c(OC)cc5CCN4C)ccc3O)cc1)N(C)CC2 [(R,S)-13] | 4.8 | –
COc1cc2c(cc1OC)[C@H](Cc1ccc(Br)cc1)N(C)CC2 [(S)-9a] | 1.7 | 3.2
COc1cc2c(cc1OC)[C@H](Cc1ccc(OC)c(OCc3ccccc3)c1)N(C)CC2 [(S)-9b] | 3.9 | 1.8
COc1ccc(COc2ccc(C[C@H]3c4cc(OC)c(OC)cc4CCN3C)cc2Br)cc1 [(S)-9c] | 1.9 | –
COc1cc2c(cc1OC)[C@H](Cc1ccc(OCc3ccccc3)cc1)N(C)CC2 [(S)-9d] | 2.0 | <1
COc1cc2c(cc1OC)[C@@H](Cc1ccc(Oc3cc(C[C@H]4c5cc(OC)c(OC)cc5CCN4C)ccc3OC)cc1)N(C)CC2 [(S,R)-11, (−)-O,O′-dimethylgrisabine] | 4.7 | –
COc1cc2c(cc1OC)[C@@H](Cc1ccc(O)c(Oc3ccc(C[C@H]4c5cc(OC)c(OC)cc5CCN4C)cc3)c1)N(C)CC2 [(S,R)-13] | 3.6 | –
COc1cc2c(cc1OC)[C@H](Cc1ccc(Oc3cc(C[C@H]4c5cc(OC)c(OC)cc5CCN4C)ccc3O)cc1)N(C)CC2 [(S,S)-13, (+)-dauricine] | 7.0 | –
O=C(Cn1ccnc1[N+](=O)[O-])NCc1ccccc1 [benznidazole, reference compound] | >40 | –
CCCCCCCCCCCCCCCCOP(=O)([O-])OCC[N+](C)(C)C [miltefosine, reference compound] | – | 18

From article PMC10900488, “Synthesis and Evaluation of (Bis)benzyltetrahydroisoquinoline Alkaloids as Antiparasitic Agents” (JACS Au, 2024)
